A mixed list of measured activities; the numbers were collected in NIAID ChemDB.

Common to all: target-level tests; organism: HIV-1; protein: Reverse transcriptase; measure: IC50

ICn: concentration for n% inhibition. Rows are shuffled and stem from different studies. Two numbers with a dash give a range or band. An empty or dashed field is not shown.

| smiles | strain or isolate | mutations | read by | conditions | result |
|---|---|---|---|---|---|
| Nc1ncnc2c1ncn2[C@@H]1O[C@H](COP(=O)(O)O[C@@H]2[C@H](O)[C@@H](COP(=O)(O)O[C@@H]3[C@H](O)[C@@H](CO)O[C@H]3n3cnc4c(N)ncnc43)O[C@H]2n2cnc3c(N)ncnc32)[C@@H](O)[C@H]1O | IIIB | - | - | - | >10 µM |
| Cc1cc(C)c(-n2nnnc2SCC(=O)Nc2ccc(F)cc2F)c(C)c1 | - | - | nucleotide incorporation / radiometric | - | <2 µM |
| Nc1ncnc2c1ncn2C1OC(COP(=O)(O)OC2C(O)C(COP(=O)(O)OC3C(O)C(CO)OC3n3cnc4c(N)ncnc43)OC2n2cnc3c(N)ncnc32)CC1O | IIIB | - | - | - | >10 µM |
| CC(=O)c1ccc(NC(=O)CSc2nnnn2-c2c(C)cc(C)cc2C)cc1 | - | - | nucleotide incorporation / radiometric | - | <2 µM |
| CCCCCCCCCCCCCCCC(=O)NC1C(COP(=O)(O)OC2CC(COP(=O)(O)OC3CC(CO)OC3n3cnc4c(N)ncnc43)OC2n2cnc3c(N)ncnc32)OC(n2cnc3c(N)ncnc32)C1O | - | - | - | - | ~100 µM |
| N#Cc1cc(Cl)cc(Oc2cc(F)cc(OCc3[nH]nc4ncccc34)c2)c1 | - | - | nucleotide incorporation / radiometric | - | <20 µM |
| CCN1c2ncc(CCOc3ccc(/C=C(\C)C(=O)O)c4ccccc34)cc2C(=O)N(C)c2cccnc21 | - | RT-V106A | nucleotide incorporation / radiometric | - | >1 µM |
| CC(C)OC(=O)N1c2ccccc2C=CC1C#N | - | - | nucleotide incorporation | - | 7.4 µM |
| CCCCCCCCCCCCCCCC(=O)NC1C(COP(=O)(O)OC2C(O)C(COP(=O)(O)OC3CC(CO)OC3n3cnc4c(N)ncnc43)OC2n2cnc3c(N)ncnc32)OC(n2cnc3c(N)ncnc32)C1O | - | - | - | - | <100 µM |
| NS(=O)(=O)c1ccc(NC(=O)COc2cc(Cl)cc(Oc3cncc(Br)c3)c2)c(Cl)c1 | - | - | nucleotide incorporation / radiometric | - | <20 µM |
| CN(CC(=O)Nc1ccccc1[N+](=O)[O-])c1nnnn1-c1cccc2ccccc12 | - | - | nucleotide incorporation / radiometric | - | <2 µM |
| CCN1c2ncc(CCOc3ccc(C(=O)O)c4ccccc34)cc2C(=O)Nc2c(C)ccnc21 | - | RT-K103N Y181C | nucleotide incorporation / radiometric | - | 0.1–1 µM |
| O=C(CCSc1nnnn1-c1cccc2ccccc12)Nc1ccccc1Cl | - | - | nucleotide incorporation / radiometric | - | <2 µM |
| CC(C)COC(=O)N1c2ccccc2C=CC1C#N | - | RT-P236L | nucleotide incorporation | - | 4.9 µM |
| N#Cc1cc(Cl)cc(Oc2cc(OCc3[nH]nc4nc(N5CC(CN)C5)ccc34)ccc2Cl)c1 | - | - | nucleotide incorporation / radiometric | - | <20 µM |
| CCCOC(=O)N1c2ccc(OC)cc2C=CC1C#N | - | RT-P236L | nucleotide incorporation | - | 4.9 µM |
| O=C(CSC(=O)N1CCCc2cc(Cl)cc(Cl)c21)Nc1ccc(C(=O)NCc2ccccc2)cc1Cl | - | WT | scintillation proximity | - | 0.002 µM |
| Nc1ncnc2c1ncn2[C@@H]1O[C@H](COP(=O)(O)O[C@@H]2[C@H](O)[C@@H](COP(=O)(O)O[C@@H]3[C@H](O)[C@@H](COP(=O)(O)O)O[C@H]3n3cnc4c(N)ncnc43)O[C@H]2n2cnc3c(N)ncnc32)[C@@H](O)[C@H]1O | IIIB | - | - | - | >10 µM |
| CCN1c2ncc(CCOc3ccc(NC(=O)CCC(=O)O)c4ccccc34)cc2C(=O)N(C)c2cccnc21 | WT | - | nucleotide incorporation / radiometric | - | <0.1 µM |
| Nc1cc(OCCOCP(=O)(O)OP(=O)(O)OP(=O)(O)O)nc(N)n1 | - | - | nucleotide incorporation / radiometric | Mg2+ | >100 µM |
| S=C(NCCc1ccccn1)Nc1cccnn1 | - | - | - | - | 3.3–33 µM |
| CC(C)COC(=O)N1c2ccc([N+](=O)[O-])cc2C=CC1C#N | - | - | nucleotide incorporation | - | 33.8 µM |
| Nc1cc(OC[C@H]2CC[C@@H](COP(=O)([O-])OP(=O)([O-])OP(=O)([O-])O)O2)nc(N)n1 | - | - | nucleotide incorporation / radiometric | Mn2+ | >500 µM |
| CC(C)OC(=O)N1c2ccc([N+](=O)[O-])cc2C=CC1C#N | - | - | nucleotide incorporation | - | 10.2 µM |
| Nc1ncnc2c1ncn2C1OC(CO)CC1OP(=O)(O)OCC1CC(OP(=O)(O)OCC2OC(n3cnc4c(N)ncnc43)C(O)C2O)C(n2cnc3c(N)ncnc32)O1 | IIIB | - | - | - | >10 µM |
| S=C(NCCc1ccccn1)Nc1cnccn1 | - | - | - | - | 33–330 µM |
| Cc1cc(C)c(-n2nnnc2SCC(=O)Nc2ccc(Br)cc2F)c(C)c1 | - | - | nucleotide incorporation / radiometric | - | <2 µM |
| COCCN(C)c1ccc2c(COc3ccc(Cl)c(Oc4cc(Cl)cc(C#N)c4)c3)[nH]nc2n1 | - | - | nucleotide incorporation / radiometric | - | <20 µM |
| CCOC(=O)N1c2cc3c(cc2C=CC1C#N)OCO3 | - | - | nucleotide incorporation | - | >50 µM |
| N#Cc1cccc(-n2nnnc2SCC(=O)Nc2ccccc2[N+](=O)[O-])c1 | - | - | nucleotide incorporation / radiometric | - | <2 µM |
| CCCOC(=O)N1c2ccccc2C=CC1C#N | - | RT-P236L | nucleotide incorporation | - | 3.4 µM |
| CC(C)=CCN1Cc2cc(Cl)cc3[nH]c(=O)n(c23)C[C@@H]1C | - | RT-Y181C | RT activity | - | 12 µM |
| CCN1c2ncc(CCOc3ccc(/C=C(\C)C(=O)O)c4ccccc34)cc2C(=O)N(C)c2ccc(Cl)nc21 | - | RT-K103N Y181C | nucleotide incorporation / radiometric | - | 0.1–1 µM |
| CCOC(=O)N1c2ccc(OC)cc2C=CC1C#N | - | - | nucleotide incorporation | - | 26.9 µM |

For reference, 4 entries again:

{"smiles": "Nc1cc(OC[C@H]2CC[C@@H](COP(=O)([O-])OP(=O)([O-])OP(=O)([O-])O)O2)nc(N)n1", "read by": "nucleotide incorporation / radiometric", "conditions": "Mn2+", "result": ">500 µM"}
{"smiles": "CC(C)COC(=O)N1c2ccccc2C=CC1C#N", "mutations": "RT-P236L", "read by": "nucleotide incorporation", "result": "4.9 µM"}
{"smiles": "CCCCCCCCCCCCCCCC(=O)NC1C(COP(=O)(O)OC2C(O)C(COP(=O)(O)OC3CC(CO)OC3n3cnc4c(N)ncnc43)OC2n2cnc3c(N)ncnc32)OC(n2cnc3c(N)ncnc32)C1O", "result": "<100 µM"}
{"smiles": "CCCOC(=O)N1c2ccc(OC)cc2C=CC1C#N", "mutations": "RT-P236L", "read by": "nucleotide incorporation", "result": "4.9 µM"}